Target: vaccinia virus L1 recombinant protein (vaccinia virus, UniProt P07612 1-185)

B1: Ch8AH8AL (antibody, V domains shown)
VH: EVQLVESGGGLIKPGGSLRLSCAASGFIFRDYNINWVRQAPGKGLEWLGFIRTRASGRSTEYSASVKGRFTISRDDSKNIAYLHINSLKMEDTAVYYCAKKGDSYYYMDFWGKGTAVTVSS
VL: ELALTQPASVSGSPGQSITISCTGGRSDLGDSNFVSWYQQYPGKAPKLLIYQVNKRPSGVPDRFSASKSANTASLTISGLQTEDEADYFCSSYTTTSTYVFGIGTKVVVLG
binding result: no binding (tested: 1 ug/ml)

Reference: patent US20090162353A1 (MacroGenics, published 2009)
